Compound potency records, mixed from different reports. Data source: NIAID ChemDB in PubChem.

Common to all: whole-cell or culture tests; agent: HIV-1; method: syncytia; measure: EC50

Blank or dashed fields: not listed here. Neighbouring rows are from separate reports. ECn is the concentration giving n% inhibition of infection, replication or growth. Two numbers with a dash give a range or band.

compound	strain	cells	mutations	result
Nc1cc(OC[C@H](CO)OCP(=O)(O)O)nc(N)n1	IIIB	CEM		≥14 µM
COc1cccc(N2CCN(c3ccc4c(=O)c(C(=O)O)cn(-c5ccc(Cn6cncn6)cc5)c4c3)CC2)c1		PBL		0.7 µM
Cc1occc1C(=S)Nc1ccc(Cl)c(OC(=O)OC(C)C)c1	IIIB	CEM		1.1 µM
CC(C)[C@H](NC(=O)c1cccnc1)C(=O)N(Cc1ccccc1)CC(O)C(Sc1ccccc1)N(Cc1ccccc1)C(=O)[C@@H](NC(=O)c1cccnc1)C(C)C	LAV	MT-4		1 µM
CC(=O)N[C@@H](CC(C)C)C(=O)N[C@H](C(=O)N[C@@H](CC(C)C)C(=O)N[C@@H](CC(N)=O)C(=O)N[C@@H](Cc1ccccc1)C(=O)O)[C@@H](C)O		PBL		>200 µg/mL
C/C=C/COc1cc(NC(=S)c2ccoc2C)ccc1Cl		CEM	RT-L100I	1.7 µM
O=C1C=CC(=C(c2ccc(O)cc2)c2ccc(O)cc2)C=C1	IIIB	MOLT-4		>100 µg/mL
C/C=C/COc1cc(NC(=S)c2ccn(C)c2C)ccc1Cl		CEM	RT-V106A	2.2 µM
CC(=O)N[C@H](C(=O)N[C@@H](CC(C)C)C(=O)N[C@@H](CC(N)=O)C(=O)N[C@@H](Cc1ccccc1)C(=O)O)[C@@H](C)O		PBL		>200 µg/mL
Cc1cn([C@H]2C[C@H](N=[N+]=[N-])[C@@H](CO)O2)c(=O)[nH]c1=O	IIIB	C8166		0.0049 µM
COc1cccc(N2CCN(c3ccc4c(=O)c(C(=O)O)cn(-c5ccc(Cn6cncn6)cc5)c4c3)CC2C)c1		PBL		0.25 µM
Cc1cn(C2OC(CO[Si](C)(C)C(C)(C)C)C3(OS(=O)(=O)C=C3N)C2O[Si](C)(C)C(C)(C)C)c(=O)n(/C=C/CO)c1=O	IIIB	CEM		0.05 µM
CC(C)[C@H](NC(=O)OC(C)(C)C)C(=O)NC(Sc1ccccc1)C(O)C(NC(=O)[C@@H](NC(=O)OC(C)(C)C)C(C)C)Sc1ccccc1	LAV	MT-4		>100 µM
N#CCc1c(N)nc(N)nc1OCCOCP(=O)(O)O	IIIB	CEM		≥300 µM
CSC1=NS(=O)(=O)N([C@@H]2O[C@H](COC(C)=O)[C@@H](OC(C)=O)[C@H]2OC(C)=O)C(=O)N1	IIIB	CEM + CEM-SS		>40 µg/mL
Cc1ccc2c(c1)C(=O)N(C13CC4CC(CC(C4)C1)C3)C2=O	IIIB	CEM		>336 µM
CC(C)(C)OC(=O)NCCNC(=O)c1cn([C@H]2CS[C@@H](COC(=O)c3ccccc3)O2)c(=O)[nH]c1=O		MT-4		>200 µM
O=C(O)c1ccc(O)c(O)c1	IIIB	MOLT-4		7 µg/mL
C=CCOC(=O)c1cc(NC(=S)c2ccoc2C)ccc1Cl		CEM	RT-L100I	1 µM
CCc1c(Cc2ccccc2)nc(SCC(=O)c2ccco2)[nH]c1=O	IIIB	C8166		0.16 µM
CN1N=C(N)c2cn([C@@H]3O[C@H](COP(=O)(O)O)[C@@H](O)[C@H]3O)c3ncnc1c23	IIIB	CEM		0.01 µM
Cc1ccsc1C(=S)Nc1ccc(Cl)c(/C=N/OC(C)(C)C)c1		CEM	RT-Y181C	0.54 µM
CCc1c(Cc2ccccc2)nc(SCC(=O)c2cccs2)[nH]c1=O	IIIB	C8166		5.39 µM
CCOC(=O)N(Cc1ccccc1)CC(O)C(Sc1ccccc1)N(Cc1ccccc1)C(=O)OCC	LAV	MT-4		>50 µM
Cc1ccsc1C(=S)Nc1ccc(Cl)c(C(=O)OC(C(C)C)C(C)C)c1		CEM	RT-K103N	73 µM
CC(C)c1c(Cc2cccc3ccccc23)nc(SCCc2ccccc2)[nH]c1=O	IIIB	C8166		7.11 µM
CC(C)[C@H](NC(=O)c1ccc2ccccc2n1)C(=O)N(Cc1ccccc1)CC(O)C(Sc1ccccc1)N(Cc1ccccc1)C(=O)[C@@H](NC(=O)c1ccc2ccccc2n1)C(C)C	LAV	MT-4		10 µM
Cc1cc(C)cc(Cc2c(C(C)C)c(=O)[nH]c(=O)n2COCCO)c1	IIIB	CEM		0.17 µM
Cc1cn(C2OC(CO[Si](C)(C)C(C)(C)C)C3(OS(=O)(=O)C=C3N)C2O[Si](C)(C)C(C)(C)C)c(=O)n(CC(=O)N(CCCl)CCCl)c1=O	E138K	CEM		>25 µM
CCc1c(Sc2ccccc2)n(COCc2ccccc2)c(=O)[nH]c1=O	IIIB	CEM	RT-E138K	0.06 µM
CCc1c(Cc2cccc3ccccc23)nc(SCC(=O)c2ccco2)[nH]c1=O	IIIB	C8166		1.43 µM
CCc1c(Cc2cc(C)cc(C)c2)n(COCCO)c(=O)[nH]c1=O	IIIB	CEM	RT-Y181I	2.5 µM
CC(C)C[C@H](NC(=O)[C@@H](NC(=O)[C@@H](N)CC(C)C)[C@@H](C)O)C(=O)N[C@@H](CC(N)=O)C(=O)N[C@@H](Cc1ccccc1)C(=O)O		PBL		>200 µg/mL
CCOCn1c(Cc2cc(C)cc(C)c2)c(CC)c(=O)[nH]c1=O	IIIB TIBO R82913-resistant (RT K103N)	CEM	RT-K103N	0.15 µM
Cc1ccsc1C(=S)Nc1ccc(Cl)c(C(=O)OC(C)C)c1		CEM	RT-L100I	9 µM
CN(C(=O)N(Cc1ccccc1)CC(O)C(Sc1ccccc1)N(Cc1ccccc1)C(=O)N(C)c1ccccc1)c1ccccc1	LAV	MT-4		10–50 µM
Cc1cccc(C)c1N1C(=O)c2ccccc2C1=O	IIIB	CEM		>784 µM
O=C(O[C@H]1CCOC1)N(Cc1ccccc1)CC(O)C(Sc1ccccc1)N(Cc1ccccc1)C(=O)O[C@H]1CCOC1	LAV	MT-4		10 µM
Cc1cccc(C)c1N1C(=O)c2ccc([N+](=O)[O-])cc2C1=O	IIIB	CEM		>667 µM
CC(C)COC(=O)N(Cc1ccccc1)CC(O)C(Sc1ccccc1)N(Cc1ccccc1)C(=O)OCC(C)C	LAV	MT-4		0.1 µM
COc1ccccc1C(=S)Nc1ccc(Cl)c(C(=O)OC(C)C)c1	IIIB	CEM		0.261 µM
C[C@H](Cn1cnc2c(N)ncnc21)OCP(=O)(O)O	IIIB	CEM		1.2 µM
CC(C)C[C@H](NC(=O)[C@@H](N)[C@@H](C)O)C(=O)N[C@@H](CC(N)=O)C(=O)N[C@@H](Cc1ccccc1)C(N)=O		PBL		>200 µg/mL
Nc1cc(OCCOCP(=O)(O)O)nc(N)n1	IIIB	CEM		3 µM
CCOCn1c(Cc2ccccc2)c(C(C)C)c(=O)[nH]c1=O	IIIB	CEM	RT-Y181I	27 µM
CC(C)OC(=O)c1cc(NC(=S)c2ccccc2N)ccc1Cl	IIIB	CEM		0.15 µM
CCc1c(Sc2ccccc2)n(COCc2ccccc2)c(=S)[nH]c1=O	IIIB	CEM	RT-Y181I	0.78 µM
CSC1=NS(=O)(=O)N([C@@H]2O[C@H](COC(C)=O)[C@@H](OC(C)=O)[C@H](OC(C)=O)[C@H]2OC(C)=O)C(=O)N1	IIIB	CEM + CEM-SS		>200 µg/mL
Cn1cccc1C(=S)Nc1ccc(Cl)c(/C=N/OC(C)(C)C)c1		CEM	RT-L100I	0.364 µM
O=c1[nH]c(=O)n([C@@H]2CS[C@@H](CO)O2)cc1I		MT-4		>100 µM
Cc1ccsc1C(=O)Nc1ccc(Cl)c(/C=N/OC(C)(C)C)c1		CEM	RT-Y181C	8.4 µM
CCOc1ccccc1N1CCN(c2ccc3c(=O)c(C(=O)O)cn(-c4ccc(Cn5cncn5)cc4)c3c2)CC1		PBL		0.25 µM
CONc1c2cc(Cl)ccc2nc(=S)c2ccccc12	LAV	H9		0.38 µM
CCc1c(Sc2cc(C)cc(C)c2)n(COCCO)c(=O)[nH]c1=O	IIIB	CEM	RT-Y188H	≥10 µM
O=C(O)Cc1cc(O)ccc1O	IIIB	MOLT-4		6 µg/mL
NC12CC3CC(CC(C3)C1)C2	IIIB	CEM		>662 µM
O=C(O)CCc1ccc(O)c(O)c1	IIIB	MOLT-4		14 µg/mL
Cc1cn(C2OC(CO[Si](C)(C)C(C)(C)C)C3(OS(=O)(=O)C=C3N)C2O[Si](C)(C)C(C)(C)C)c(=O)n(CCCNC(=O)c2ccc(N=[N+]=[N-])cc2O)c1=O	IIIB	CEM		0.37 µM
Cc1c(N)nc(N)n(CCOCP(=O)(O)O)c1=O	IIIB	CEM		≥300 µM
C/C=C/CSc1cc(NC(=S)c2ccsc2C)ccc1Cl		CEM	RT-V106A	0.078 µM
CC(C)(C)OC(=O)N(Cc1ccccc1)CC(O)C(Sc1ccccc1)N(Cc1ccccc1)C(=O)OC(C)(C)C	LAV	MT-4		0.1–1 µM
N#CCc1c(N)nc(N)n(CCOCP(=O)(O)O)c1=O	IIIB	CEM		≥300 µM
Cc1ccsc1C(=S)Nc1ccc(Cl)c(C(=O)OC2CCCCC2)c1		CEM	RT-V106A	1.5 µM
CCc1c(Cc2cccc3ccccc23)nc(Sc2cccs2)[nH]c1=O	IIIB	C8166		14.1 µM
C/C=C/CSc1cc(NC(=S)c2ccoc2C)ccc1Cl		CEM	RT-V106A	0.075 µM
Nc1nc(N)c(Br)c(OCCOCP(=O)(O)O)n1	IIIB	CEM		7.3 µM
O=c1[nH]c(=O)n([C@H]2CS[C@@H](CO)O2)cc1I		MT-4		>100 µM
Cc1ccsc1C(=O)Nc1ccc(Cl)c(C(=O)OC2CCCCC2)c1	IIIB	CEM		0.494 µM
NCCNC(=O)c1cn([C@H]2CS[C@@H](CO)O2)c(=O)[nH]c1=O		MT-4		>200 µM
CCOCn1c(Sc2cc(C)cc(C)c2)c(CC)c(=O)[nH]c1=O	IIIB	CEM		0.004 µM
O=C(O)c1cc(O)c(O)c(O)c1	IIIB	MOLT-4		20 µg/mL
CC[C@H](C)[C@H](NC(C)=O)C(=O)NCC(=O)N[C@@H](CC(C)C)C(=O)N[C@H](C(=O)N[C@@H](CC(C)C)C(=O)N[C@@H](CC(N)=O)C(=O)N[C@@H](Cc1ccccc1)C(=O)O)[C@@H](C)O		PBL		>200 µg/mL
CCOC(=O)c1cc(NC(=S)c2ccoc2C)ccc1C		CEM	RT-Y181C	1.9 µM

The first 8 rows once more:

Nc1cc(OC[C@H](CO)OCP(=O)(O)O)nc(N)n1 ; strain: IIIB ; cells: CEM ; result: ≥14 µM
COc1cccc(N2CCN(c3ccc4c(=O)c(C(=O)O)cn(-c5ccc(Cn6cncn6)cc5)c4c3)CC2)c1 ; cells: PBL ; result: 0.7 µM
Cc1occc1C(=S)Nc1ccc(Cl)c(OC(=O)OC(C)C)c1 ; strain: IIIB ; cells: CEM ; result: 1.1 µM
CC(C)[C@H](NC(=O)c1cccnc1)C(=O)N(Cc1ccccc1)CC(O)C(Sc1ccccc1)N(Cc1ccccc1)C(=O)[C@@H](NC(=O)c1cccnc1)C(C)C ; strain: LAV ; cells: MT-4 ; result: 1 µM
CC(=O)N[C@@H](CC(C)C)C(=O)N[C@H](C(=O)N[C@@H](CC(C)C)C(=O)N[C@@H](CC(N)=O)C(=O)N[C@@H](Cc1ccccc1)C(=O)O)[C@@H](C)O ; cells: PBL ; result: >200 µg/mL
C/C=C/COc1cc(NC(=S)c2ccoc2C)ccc1Cl ; cells: CEM ; mutations: RT-L100I ; result: 1.7 µM
O=C1C=CC(=C(c2ccc(O)cc2)c2ccc(O)cc2)C=C1 ; strain: IIIB ; cells: MOLT-4 ; result: >100 µg/mL
C/C=C/COc1cc(NC(=S)c2ccn(C)c2C)ccc1Cl ; cells: CEM ; mutations: RT-V106A ; result: 2.2 µM